# HIV-1 NL4-3 point mutations in Gag: replication capacity

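Random point mutant libraries of HIV-1 NL4-3, one for each of seven fragments, were passaged in CEM T lymphocytes. Sequencing gave the RC index: frequency after two rounds over frequency in the input plasmid.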

Protein: Gag of HIV-1 NL4-3, numbered from its first residue. Gag is numbered as the whole polyprotein.
"Other frame" gives the effect on an overlapping gene as the source lists it; other overlaps (genes, RNA elements) are not shown.

RC index: lower means poorer replication; rough cut-offs are 0.1 (lethal) and 0.2 (tolerated).
Substitutions are written as wild-type residue, site number, new residue.
Input reads are the counts in the plasmid library.
An index over 1, which the authors read as above wild type, was rare (1.9% of all changes in the genome).
Nucleotide positions follow pNL4-3.
Clones carried about five changes per kilobase, which can drag down the index of neutral changes.

substitution	base	region	other frame	input reads	replication capacity index
S368G	A1891G	p2	none	307	0.0590
S368N	G1892A	p2	none	365	0.237
S368T	G1892C	p2	none	45	0.0620
S368R	C1893A	p2	none	120	0.0697
S368R	C1893G	p2	none	169	0.0165
V370I	G1897A	p2	none	281	0.194
V370L	G1897T	p2	none	393	0.0142
V370E	T1898A	p2	none	504	0.0111
T371I	C1901T	p2	none	493	0.0933
N372H	A1903C	p2	none	191	0.00730
N372D	A1903G	p2	none	301	0.0232
N372T	A1904C	p2	none	93	0.0600
N372S	A1904G	p2	none	252	0.0277
A374T	G1909A	p2	none	312	0.131
A374D	C1910A	p2	none	213	0.0369
T375A	A1912G	p2	none	169	0.0372
I376V	A1915G	p2	none	267	0.0353
I376K	T1916A	p2	none	364	0.0130
M377V	A1918G	p2	none	265	0.0356
M377T	T1919C	p2	none	276	0.0171
M377I	G1920A	p2	none	203	0.542
I378L	A1921T	NC p7	none	234	0.0269
I378T	T1922C	NC p7	none	100	0.157
Q379L	A1925T	NC p7	none	286	0.0110
G381S	G1930A	NC p7	none	201	0.133
G381C	G1930T	NC p7	none	263	0.0837
G381D	G1931A	NC p7	none	330	0.748
G381V	G1931T	NC p7	none	119	0.0396
N382D	A1933G	NC p7	none	258	0.0244
N382S	A1934G	NC p7	none	256	0.239
N382K	T1935A	NC p7	none	109	0.159
F383L	T1936C	NC p7	none	161	0.127
F383Y	T1937A	NC p7	none	443	0.0284
F383S	T1937C	NC p7	none	452	0.0487
R384K	G1940A	NC p7	none	137	16.8
R384S	G1941T	NC p7	none	96	0.164
N385S	A1943G	NC p7	none	205	0.00767
Q386K	C1945A	NC p7	none	48	0.459
K388T	A1952C	NC p7	none	43	0.110
K388R	A1952G	NC p7	none	149	0.127
T389I	C1955T	NC p7	none	408	0.250
V390I	G1957A	NC p7	none	162	0.349
V390A	T1958C	NC p7	none	195	0.355
K391R	A1961G	NC p7	none	129	0.0366
K391N	G1962C	NC p7	none	50	0.157
F393I	T1966A	NC p7	none	189	0.0166
F393S	T1967C	NC p7	none	175	0.108
N394K	T1971A	NC p7	none	299	0.0736
C395R	T1972C	NC p7	none	186	0.0423
C395G	T1972G	NC p7	none	62	0.0761
G396S	G1975A	NC p7	none	163	0.193
G396C	G1975T	NC p7	none	125	0.126
G396A	G1976C	NC p7	none	63	0.0749
G396V	G1976T	NC p7	none	114	0.0552
K397E	A1978G	NC p7	none	149	0.0211
E398G	A1982G	NC p7	none	127	0.0743
G399R	G1984A	NC p7	none	196	0.457
G399E	G1985A	NC p7	none	87	0.271
H400Q	C1989A	NC p7	none	36	0.218
I401L	A1990T	NC p7	none	138	0.0456
I401T	T1991C	NC p7	none	74	0.149
G412D	G2024A	NC p7	none	423	0.291
W414R	T2029A	NC p7	none	214	0.0396
K415E	A2032G	NC p7	none	353	0.0961
K415R	A2033G	NC p7	none	583	0.0400
K415N	A2034T	NC p7	none	241	0.0352
C416S	T2035A	NC p7	none	197	0.0323
C416R	T2035C	NC p7	none	389	0.0545
C416Y	G2036A	NC p7	none	617	0.392
K418Q	A2041C	NC p7	none	150	0.0848
K418T	A2042C	NC p7	none	93	0.160
K418N	G2043T	NC p7	none	263	0.145
H421R	A2051G	NC p7	none	492	0.0431
Q422R	A2054G	NC p7	none	529	0.0561
Q422H	A2055C	NC p7	none	75	0.141
Q422H	A2055T	NC p7	none	356	0.0298
M423K	T2057A	NC p7	none	487	0.0522
C426R	T2065C	NC p7	none	345	0.0614
C426Y	G2066A	NC p7	none	899	0.0825
T427S	C2069G	NC p7	none	237	0.0358
T427I	C2069T	NC p7	none	625	0.0848
E428K	G2071A	NC p7	none	255	0.640
E428G	A2072G	NC p7	none	317	0.0936
E428V	A2072T	NC p7	none	435	0.0244
R429G	A2074G	NC p7	none	272	0.117
Q430H	G2079T	NC p7	none	594	0.0892
A431T	G2080A	NC p7	none	664	0.220
A431V	C2081T	NC p7	none	292	0.305
N432S	A2084G	NC p7	none	499	0.0297
N432K	T2085G	NC p7	none	63	0.168
G435W	G2092T	p1	none	260	0.130
G435V	G2093T	p1	none	478	0.0532
K436R	A2096G	p1	none	732	0.0666
K436M	A2096T	p1	none	482	0.0396
W438R	T2101A	p1	none	860	0.0394
W438G	T2101G	p1	none	173	0.0368
W438C	G2103T	p1	none	133	0.0797
P439H	C2105A	p1	none	540	0.0353
S440F	C2108T	p1	none	434	0.0635
H441Y	C2110T	p1 / p6*	p6* P1L	302	0.0561
H441L	A2111T	p1 / p6*	p6* silent	910	0.0512
K442E	A2113G	p1 / p6*	p6* Q2R	612	0.0796
G443R	G2116A	p1 / p6*	p6* G3E	278	0.0991
R444G	A2119G	p1 / p6*	p6* K4R	632	0.104
R444K	G2120A	p1 / p6*	p6* silent	258	0.230
R444M	G2120T	p1 / p6*	p6* K4N	270	0.126
R444S	G2121C	p1 / p6*	p6* A5P	64	0.0331
R444S	G2121T	p1 / p6*	p6* A5S	162	0.105
P445S	C2122T	p1 / p6*	p6* A5V	625	0.115
G446E	G2126A	p1 / p6*	p6* silent	180	0.353
G446V	G2126T	p1 / p6*	p6* R6S	174	0.0731
N447D	A2128G	p1 / p6*	p6* E7G	567	0.0262
N447S	A2129G	p1 / p6*	p6* silent	612	0.0381

The opening 6 entries, copied out:

substitution,base,region,other frame,input reads,replication capacity index
S368G,A1891G,p2,none,307,0.0590
S368N,G1892A,p2,none,365,0.237
S368T,G1892C,p2,none,45,0.0620
S368R,C1893A,p2,none,120,0.0697
S368R,C1893G,p2,none,169,0.0165
V370I,G1897A,p2,none,281,0.194

Data from the supplement of Al-Mawsawi et al. 2014, doi:10.1186/s12977-014-0124-6.